Reference: paper PMC11063343, “Cellugyrin (synaptogyrin-2) dependent pathways are used by bacterial cytolethal distending toxin and SARS-CoV-2 virus to gain cell entry” (2024)

Experiments:
Cdt subunit CdtC = Cdt subunit CdtC (UniProt O87122)

Substance | response (Cdt subunit CdtC) | response (m1, O87120;O87121;O87122)
cellugyrin Middle outer loop (MOL) peptide R101A; F111A | 130 RU | 
cellugyrin Middle outer loop (MOL) peptide Y103A; F111A |  | 22 RU
